Measured values from several laboratories, pooled; numbers as filed in NIAID ChemDB.

All rows: growth or infection tests; species: HIV-1; cells: MT-4; endpoint: inhibition

Lines come from different laboratories, so protocols vary.

compound | strain or isolate | changes | method | dose | result
CO[C@@H]1[C@@H](O)[C@@H](O)[C@H](O)[C@H](O)[C@H]1n1cnc2c(N)ncnc21 | IIIB |  | cytopathic effect / MTT | 10 µg/mL | 32.6%
CCc1cc(NCc2nc3c(Cl)ccc(Cl)c3o2)c(=O)[nH]c1C | HXBE30(RT-P236L) | RT-P236L | antigen | 0.01 µM | 100%
Cc1cn([C@H]2C[C@H](N=[N+]=[N-])[C@@H](CO)O2)c(=O)[nH]c1=O |  |  | cytopathic effect | 0.22 µM | 70%
C=C(C)[C@]12C[C@@H](COC(=O)c3ccccc3)[C@@]34O[C@]5(O[C@@H]1[C@@H]3[C@@H]1O[C@]1(CO)[C@@H](O)[C@@]1(O)[C@H]4[C@H]([C@H](C)[C@@H]1OC(=O)c1ccccc1)[C@H](C)CCCCCC[C@H]5O)O2 |  |  |  | 0.005 µM | 80%
Cc1cn([C@H]2C[C@H](N=[N+]=[N-])[C@@H](CO)O2)c(=O)[nH]c1=O | BRU |  | syncytia | 0.067 µg/mL | 100%
CC(C)NCC(O)COc1cccc2[nH]ccc12 | LAV |  |  | 100 µg/mL | 0%
Cc1ccc(C(=O)Nc2ccc(S(=O)(=O)O)c3cc(S(=O)(=O)O)cc(S(=O)(=O)O)c23)cc1NC(=O)c1cccc(NC(=O)Nc2cccc(C(=O)Nc3cc(C(=O)Nc4ccc(S(=O)(=O)O)c5cc(S(=O)(=O)O)cc(S(=O)(=O)O)c45)ccc3C)c2)c1 | HTLV-III |  | plaque count | 50 µg/mL | 97%
CO[C@H]1[C@@H](O)[C@H](n2cnc3c(N)ncnc32)[C@@H](O)[C@H](O)[C@@H]1O | IIIB |  | cytopathic effect / MTT | 10 µg/mL | 87.2%
CNC(=O)c1cc(F)ccc1CNC(=O)c1nc(N2CCCCS2(=O)=O)c2cccnc2c1O | IIIB |  | p24 | 0.015 µM | 95%
CC(C)[C@H](NC(=O)c1ccccn1)C(=O)N[C@@H](Cc1ccccc1)[C@H](O)[C@H](O)[C@H](Cc1ccccc1)NC(=O)[C@@H](NC(=O)c1ccccn1)C(C)C | NL4-3 | PR-L10F G48V | p24 | 30 µM | 90%
Cc1c(Cc2c(F)cccc2F)nc(SC(C)C)[nH]c1=O | IIIB |  | p24 | 0.15 µM | 99.9%
CC(C)(C)NC(=O)[C@@H]1CN(Cc2cnc3occc3c2)CCN1C[C@@H](O)C[C@@H](Cc1ccccc1)C(=O)N[C@H]1c2ccccc2C[C@H]1O |  |  | p24 | 0.025 µM | 95%
COC(=O)[C@H]1[C@H]2C[C@@H]3c4[nH]c5cc(OC)ccc5c4CCN3C[C@H]2C[C@@H](OC(=O)/C=C/c2cc(OC)c(OC)c(OC)c2)[C@@H]1OC | LAV |  |  | 100 µg/mL | 0%
CC(=O)O[C@@H]1C(=O)C2=C(C(=O)C[C@H]3C(C)(C)[C@@H](O)CC[C@]23C)[C@]2(C)C(=O)C[C@H]([C@@H](C)CC(=O)C[C@@H](C)C(=O)O)[C@@]12C |  |  | cytopathic effect / microscopy | 1000 µM | 0%
O=C1CN(c2ccccc2)Cc2nc(Cl)ccc2N1 | BRU |  | syncytia | 2.5 µg/mL | 66%
C[C@H]1COc2c(N3CCN(C)CC3)c(F)cc3c(=O)c(C(=O)O)cn1c23 | IIIB |  | cytopathic effect / XTT | 50 µg/mL | 10%
COC(=O)[C@@H](C)NC(=O)c1c(C)cc2c(c1O)-c1c(cc3c(c1O)C(=O)c1cc(OC)cc(O)c1C3=O)[C@H](O)[C@H]2O[C@@H]1O[C@H](CO)[C@H](N)[C@H](O)[C@H]1O | IIIB |  | antigen | 30 µg/mL | 76%
Nc1nc2c(ncn2[C@H]2CC[C@@H](CO)O2)c(=O)[nH]1 | IIIB |  | ELISA | 10 µM | 97%
CC(C)=CCC/C(C)=C/CC/C(C)=C/CCC(=O)OC/C=C(\C)CCC=C(C)C | LAV |  |  | 100 µg/mL | 0%
Cc1cn([C@H]2CC[C@@H](CO)O2)c(=O)[nH]c1=O | IIIB |  | ELISA | 10 µM | 90%
CCOCn1c(Cc2ccccc2)c(C(C)C)c(=O)[nH]c1=O | IIIB |  | cytopathic effect / MTT | 0.038 µM | 70%
CC(C)Sc1nc(Cc2c(F)cccc2F)cc(=O)[nH]1 | IIIB |  | p24 | 0.19 µM | 99.9%
Cc1cn([C@H]2C[C@H](N=[N+]=[N-])[C@@H](/C=C/P(=O)(O)Oc3ccccc3)O2)c(=O)[nH]c1=O | IIIB |  | cytopathic effect / propidium iodide | 200 µM | 0%
Cc1cn([C@H]2C[C@H](F)[C@@H](CO)O2)c(=O)[nH]c1=O | 121-2(PRE-AZT) |  | p24 / ELISA | 0.034 µM | 95%
Nc1ncnc2c1ncn2[C@H]1CC[C@@H](CO)O1 | IIIB |  | ELISA | 10 µM | 50%
COc1cc(O)c2c(c1)C(=O)c1c(cc3c(c1O)-c1c(cc(C)c(C(=O)N[C@H](C)C(=O)O)c1O)[C@H](O[C@@H]1O[C@H](C)[C@H](NC(C)=O)[C@H](O[C@@H]4OC[C@@H](O)[C@H](O)[C@H]4O)[C@H]1O)[C@H]3O)C2=O | IIIB |  | antigen | 10 µg/mL | <10%
CC(C)[C@H](NS(=O)(=O)N(C)Cc1ccccn1)C(=O)N[C@@H](Cc1ccccc1)[C@@H](O)[C@H](O)[C@H](Cc1ccccc1)NC(=O)[C@@H](NS(=O)(=O)N(C)Cc1ccccn1)C(C)C | IIIB |  | cytopathic effect | 100 µM | 0%
C(=C\c1ccccc1)/CN1CCN(C(c2ccccc2)c2ccccc2)CC1 | LAV |  |  | 100 µg/mL | 0%
CC(C)(C)OC(=O)N[C@@H](Cc1ccccc1)[C@@H](O)[C@@H](NCc1ccc(CNC(=O)CCc2nc3ccccc3[nH]2)cc1)C(=O)NCc1ccccc1 | IIIB |  | cytopathic effect / MTT | 3 µM | 0%
COc1cc(O)c2c(c1)C(=O)c1c(cc3c(c1O)-c1c(cc(C)c(C(=O)N[C@H](C)C(=O)O)c1O)[C@H](O)[C@H]3O)C2=O | IIIB |  | antigen | 30 µg/mL | <10%
CC(C)(C)OC(=O)N[C@@H](Cc1ccccc1)[C@@H](O)[C@@H](NCc1ccccc1)C(=O)NCc1ccccc1 | IIIB |  | cytopathic effect / MTT | 3 µM | 0%
Cc1cn([C@H]2C[C@H](N=[N+]=[N-])[C@@H](CO)O2)c(=O)[nH]c1=O | IIIB |  | RT activity | 0.0312 µM | 84.2%
COc1ccc(CN[C@@H](C(=O)N[C@H]2c3ccccc3C[C@H]2O)[C@H](O)[C@H](Cc2ccccc2)NC(=O)[C@H](CC(=O)O)NC(=O)OCc2ccccc2)cc1 | IIIB |  | cytopathic effect / MTT | 3 µM | 0%
O=C(O)c1cn2c3c(c(N4CCN(c5ccccn5)CC4)c(F)cc3c1=O)OCC2CF | IIIB |  | cytopathic effect / XTT | 10 µg/mL | 90%
Cc1nnc2n1-c1ccc(Cl)nc1CN(c1ccccc1)C2 | BRU |  | p24 | 10 µg/mL | 0%
CCCCCCCCCc1ccc(OCCOCCOCCOCCOCCOCCOCCOCCOCCO)cc1 | IIIB |  | p24 / ELISA | 10 µg/mL | 100%
Cc1cn([C@H]2C[C@H](N=[N+]=[N-])[C@@H](CO)O2)c(=O)[nH]c1=O |  |  |  | 10 µg/mL | 6%
C[C@H](CC[C@H](O)C(C)(O)CO)[C@H]1CC[C@@]2(C)C3=CCC4C(C)(C)[C@@H](O)CC[C@]4(C)C3=CC[C@]12C |  |  | cytopathic effect / microscopy | 1000 µM | 0%
CCCCCCCCCC(=O)O[C@@]12[C@H](OCOC)[C@@H](C)[C@@]3(O)[C@@H](C=C(CO)C[C@]4(O)C(=O)C(C)=C[C@@H]34)[C@@H]1C2(C)C | IIIB |  | cytopathic effect / MTT | 0.1 µg/mL | 100%
C[C@@H]1[C@H](O)[C@@H](C)/C=C/C=C/C=C/C=C/C=C/C=C/C=C/[C@H](O[C@@H]2O[C@H](C)[C@@H](O)[C@H](N)[C@@H]2O)CC2O[C@](O)(CC(O)C(O)CCC(O)CC(O)CC(O)CC(=O)O[C@H]1C)CC(O)C2C(=O)O.O=S(=O)(O)O | LAV |  | fluorescence | 4 µg/mL | 79.6%
CCc1cc(NCc2nc3c(C)ccc(C)c3o2)c(=O)[nH]c1C | RF |  | p24 | 0.05 µM | 95%
CC(C)[C@@H](C)/C=C/[C@@H](C)[C@H]1CCC2[C@@]34C=C[C@]5(C[C@@H](O)CC[C@]5(C)C3CC[C@@]21C)OO4 |  |  | cytopathic effect / microscopy | 15.6 µM | 0%
COc1cc(O)c2c(c1)C(=O)c1c(cc3c(c1O)-c1c(cc(C)c(C(=O)N[C@H](C)C(=O)O)c1O)[C@H](O[C@@H]1O[C@H](C)[C@H](O)[C@H](O)[C@H]1O)[C@H]3O)C2=O | IIIB |  | antigen | 10 µg/mL | <10%
CCOc1ccc(CN[C@@H](C(=O)N[C@H]2c3ccccc3C[C@H]2O)[C@H](O)[C@H](Cc2ccccc2)NC(=O)OC(C)(C)C)cc1 | IIIB |  | cytopathic effect / MTT | 3 µM | 0%
Cc1cn([C@H]2C[C@@H](N=[N+]=[N-])C[C@@H](CO)O2)c(=O)[nH]c1=O | IIIB |  |  | 333 µM | 0%
NC12CC3CC(CC(C3)C1)C2 | LAV |  |  | 1 µg/mL | 60%
C[C@H](CC(=O)C[C@@H](C)[C@H]1CC(=O)[C@@]2(C)C3=C(C(=O)C[C@]12C)[C@@]1(C)CCC(=O)C(C)(C)[C@@H]1C[C@@H]3O)C(=O)O |  |  | cytopathic effect / microscopy | 1000 µM | 0%
CCCCCCCCCc1ccc(OCCOCCOCCOCCOCCOCCOCCOCCOCCO)cc1 |  |  | XTT / p24 | 10 µg/mL | 100%
O=c1cc(Cc2c(F)cccc2F)nc(SC2CCCC2)[nH]1 | IIIB |  | p24 | 0.3 µM | 99.9%
CO[C@@H]1[C@@H](O)[C@@H](O)[C@H](O)[C@H](O)[C@H]1n1ccc(N)nc1=O.O=C(O)/C=C/C(=O)O | IIIB |  | cytopathic effect / MTT | 10 µg/mL | 28.4%
CC(C)C[C@H](NC(=O)[C@H](Cc1ccccc1)C[C@H](O)[C@H](Cc1ccccc1)NC(=O)OC(C)(C)C)C(=O)N[C@@H](Cc1ccccc1)C(N)=O | IIIB |  | p24 | 6 µM | 95%
CO[C@H]1[C@@H](O)[C@H](n2ccc(N)nc2=O)[C@@H](O)[C@H](O)[C@@H]1O | IIIB |  | cytopathic effect / MTT | 10 µg/mL | 25.5%
Cc1cn([C@H]2C[C@H](N=[N+]=[N-])[C@@H](CO)O2)c(=O)[nH]c1=O | IIIB |  | p24 / ELISA | 0.003 µg/mL | 90%

For reference, 3 entries again:

{"compound": "CC(C)Sc1nc(Cc2c(F)cccc2F)cc(=O)[nH]1", "strain or isolate": "IIIB", "method": "p24", "dose": "0.19 µM", "result": "99.9%"}
{"compound": "COC(=O)[C@H]1[C@H]2C[C@@H]3c4[nH]c5cc(OC)ccc5c4CCN3C[C@H]2C[C@@H](OC(=O)/C=C/c2cc(OC)c(OC)c(OC)c2)[C@@H]1OC", "strain or isolate": "LAV", "dose": "100 µg/mL", "result": "0%"}
{"compound": "O=c1cc(Cc2c(F)cccc2F)nc(SC2CCCC2)[nH]1", "strain or isolate": "IIIB", "method": "p24", "dose": "0.3 µM", "result": "99.9%"}

Inhibition is in % at the dose shown (toxicity tests: loss of growth or viability). An empty or dashed field is not shown.